What all share (settings): concentration: 10 µM; 24 h
Test [1] has as its system HCC1569. In words: cell number relative to DMSO (% of DMSO); higher = more cells (less growth inhibition / toxicity). Put shortly: (§1)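 Using 384-well plates with 800 cells per well in RPMI plus 10% FBS, HCC1569 and TDF cells were exposed to compounds at 10 µM, in triplicate, for 24 h at 37 °C. Imaging of six fields per well at ×10 followed H1.0 and DAPI staining. The reported quantity, H1.0 nuclear intensity or cell number, is a median of replicates given as percent of the plate control, and HCC1569 values were smoothed for positional effects.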

Test [2] has as its system TDF. The test is described as above. In outline:
as §1

For test [3], the system named is TDF. The test can be described thus: H1.0 immunofluorescence intensity relative to DMSO (% of DMSO); higher = stronger H1.0 induction, active = 120 or more. In outline: as §1
For test [4], the system named is HCC1569. In words: H1.0 immunofluorescence intensity relative to DMSO (% of DMSO); higher = stronger H1.0 induction, active = 140 or more. In outline: as §1

The record followed here is the supplement of paper PMC7156485.

Molecules are shown by their SMILES. Only a part is listed here, and it is no random draw.
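Wherever H1.0 immunofluorescence intensity relative to DMSO is given: TDF is a line of transformed human dermal fibroblasts of mesenchymal origin.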
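Wherever cell number relative to DMSO is given: TDF denotes transformed human dermal fibroblasts of mesenchymal origin.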

For the molecule `COc1ccc(C=C(C#N)C#N)cc1` [Tyrphostin 1], the cell number was 99.9 with HCC1569 [1] and 98.7 in the test with TDF [2]. In addition, the figures for the H1.0 immunofluorescence intensity with TDF [3] and with HCC1569 [4] were inactive: 94 and inactive: 103, respectively.
For `COc1ccc(C=C(C#N)C#N)cc1`, in that order: 97.9, 109, inactive: 93.7 and inactive: 117.
